## Zika virus NS2B-NS3: effect of single substitutions on growth in cell culture

Source: Ni et al. 2025 (doi:10.1038/s41467-025-63602-z), supplementary data.

Protein: NS2B and the protease part of NS3 of Zika virus strain MR766. Positions count along the chain below; NS2B spans 2-131 and NS3 starts at 132.
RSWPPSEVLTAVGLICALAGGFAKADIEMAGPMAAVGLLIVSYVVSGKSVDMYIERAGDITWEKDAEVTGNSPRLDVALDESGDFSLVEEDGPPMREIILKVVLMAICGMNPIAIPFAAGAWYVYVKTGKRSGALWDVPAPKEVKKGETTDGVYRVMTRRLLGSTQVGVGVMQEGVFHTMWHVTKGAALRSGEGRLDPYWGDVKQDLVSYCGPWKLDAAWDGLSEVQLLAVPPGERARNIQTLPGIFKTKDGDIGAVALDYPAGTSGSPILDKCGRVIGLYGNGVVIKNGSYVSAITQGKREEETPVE

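Libraries of single mutants were passaged as virus pools on Huh-7.5 cells. Deep sequencing gave the change in frequency of each mutant relative to wild type, averaged over three replicate libraries (two for positions 207-308).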

Scale: log2 effect, wild type = 0; the lower, the more harmful to the virus.
A change reads original residue, position, new residue.

| # | change | log2 effect |
|---|---|---|
| 1 | V8C | -2.50 |
| 2 | V8K | -4.99 |
| 3 | L9P | -1.56 |
| 4 | T10W | -4.03 |
| 5 | V12E | -6.31 |
| 6 | G13* | -7.92 |
| 7 | G13S | -7.02 |
| 8 | K24M | -3.94 |
| 9 | A30H | -0.74 |
| 10 | A34M | -5.15 |
| 11 | L39Y | -4.67 |
| 12 | S42K | -6.19 |
| 13 | V44K | -6.04 |
| 14 | E55H | -5.87 |
| 15 | R56F | -1.23 |
| 16 | A57K | -5.32 |
| 17 | G58Y | -6.15 |
| 18 | I60Q | -6.60 |
| 19 | E63A | -1.91 |
| 20 | K64M | 0.02 |
| 21 | E67F | -4.48 |
| 22 | G70V | -4.54 |
| 23 | L75M | -6.79 |
| 24 | G83Y | -0.22 |
| 25 | I98V | -0.84 |
| 26 | G109Y | -5.12 |
| 27 | N111E | -4.00 |
| 28 | P112K | -5.25 |
| 29 | P116D | -3.97 |
| 30 | A121Q | -6.13 |
| 31 | V124R | -7.16 |
| 32 | G129C | -5.51 |
| 33 | G133H | -5.23 |
| 34 | D137A | -6.88 |
| 35 | P139A | -6.41 |
| 36 | P141* | -5.77 |
| 37 | G152V | -3.81 |
| 38 | G168T | -5.93 |
| 39 | M172T | -6.50 |
| 40 | V176D | -4.56 |
| 41 | W181F | -5.15 |
| 42 | W181M | -4.97 |
| 43 | W181N | -4.37 |
| 44 | V183R | -6.21 |
| 45 | T184M | -5.78 |
| 46 | G186S | -6.37 |
| 47 | R195M | -6.21 |
| 48 | L196D | -4.16 |
| 49 | V203H | -6.35 |
| 50 | Q205H | -3.18 |
| 51 | Q205M | -3.89 |
| 52 | C211S | -0.67 |
| 53 | G212A | -7.74 |
| 54 | W214D | -7.19 |
| 55 | W214G | -7.07 |
| 56 | G222V | -7.22 |
| 57 | G222W | -6.07 |
| 58 | K250W | -6.18 |
| 59 | V257* | -5.99 |
| 60 | C274H | -1.07 |
| 61 | G275P | -4.66 |
| 62 | G284L | -6.29 |
| 63 | V285W | -4.76 |
| 64 | N289F | -5.72 |
| 65 | S291E | -0.89 |
| 66 | I296H | -4.90 |
| 67 | E308A | 0.59 |

7 of these entries, quoted again:

change	log2 effect
E308A	0.59
G275P	-4.66
G186S	-6.37
E55H	-5.87
V285W	-4.76
L196D	-4.16
S42K	-6.19

Positions 1-103, 104-206 and 207-308 were made and measured as separate libraries.
Stop codons (*) centre on -7 and mark the level of dead virus.
Six mutants with high scores were retested singly and none clearly outgrew wild type, so positive values are not proof of better growth.
The authors count -1 or higher as tolerated. Position 1 is the last residue of NS2A.